A mixed list of measured activities; the numbers were collected in NIAID ChemDB.

Common to all: growth or infection tests; organism: Staphylococcus aureus

A number after MIC or MFC names an inhibition level or a share of isolates. Two numbers with a dash give a range or band. Blank or dashed fields: not listed here. Conditions beyond the fields shown may differ between rows. ECn: concentration that inhibits the pathogen or its effect by n%.

SMILES	strain or isolate	read-out	method	value
COc1c(C)cc2c(c1C(C)C)CC[C@H]1C(C)(C)CCC[C@]21C		MIC		>32 µg/mL
CC(C)c1cc2c(cc1O[C@@H]1O[C@H](CO)C(O[C@@H]3O[C@H](CO)[C@@H](O)[C@H](O)[C@H]3O)[C@H](O)[C@H]1O)[C@@]1(C)CCCC(C)(C)[C@@H]1CC2		MIC		>32 µg/mL
CC(C)c1c(O)ccc2c1C[C@@H]1OC[C@]3(C)CCC[C@@]2(C)C13	Methicillin-resistant	MIC		>32 µg/mL
NC1CON(CCO)C1=O		MIC		>2500 µM
COc1c(N2C[C@@H]3CCCN[C@@H]3C2)c(F)cc2c(=O)c(C(=O)O)cn(C3CC3)c12	25 strains (methicillin-susceptible)	MIC50		0.06 µg/mL
Cc1c(N2CC[C@H](NC3CC3)C2)c(F)cn2c(=O)c(C(=O)O)cc(C3CC3)c12	1775 (ciprofloxacin-resistant)	MIC		3.1 µg/mL
CCCCn1sc2cc(C(F)(F)F)ccc2c1=O	ATCC 6538	MIC		5 µg/mL
CC(C)c1c(O)ccc2c1C[C@@H](O)[C@H]1C(C)(C)CCC[C@]21C	Methicillin-resistant	MIC		8 µg/mL
CO[C@H]1/C=C/O[C@@]2(C)Oc3c(C)c(O)c4c(O)c(c5c(c4c3C2=O)NC2(CCN(CC(C)C)CC2)N=5)=NC(=O)/C(C)=C\C=C\[C@H](C)[C@H](O)[C@@H](C)[C@@H](O)[C@@H](C)[C@H](OC(C)=O)[C@@H]1C	SMITH	MIC		0.0313 µg/mL
CC(C)c1cccc2c1CC[C@H]1C(C)(C)CCC[C@]21C		MIC		>32 µg/mL
CC(C)c1cc2c(c(C(C)C)c1O)CC[C@H]1C(C)(C)CCC[C@]21C		MIC		32 µg/mL
CC(C)c1c(O)ccc2c1C[C@@H](O)[C@H]1C(C)(C)CCC[C@]21CO	Methicillin-resistant	MIC		8 µg/mL
O=C(O)c1cn(C2CC2)c2c(F)c(N3CCN(CCO)CC3)c(Cl)cc2c1=O	1756	MIC		0.5 µg/mL
CC(C)c1cc2c(cc1OCc1ccccc1)[C@@]1(C)CCCC(C)(C)[C@@H]1CC2		MIC		>32 µg/mL
COc1c(CO)cc2c(c1C(C)C)CC[C@H]1C(C)(C)CCC[C@]21C		MIC		>32 µg/mL
CCCCC/C=C\C/C=C\CCCCCCCC(=O)O		MIC		200 µM
C[C@H]1CN(c2c(F)cc3c(=O)c(C(=O)O)cn(C4CC4)c3c2OC(F)F)CCN1	20 strains (oxacillin-susceptible)	MIC50		0.06 µg/mL
CCCCn1sc2cccc(F)c2c1=O	ATCC 6538	MIC		30 µg/mL
CCC[C@H](N)C1CCN(c2c(F)cn3c(=O)c(C(=O)O)cc(C4CC4)c3c2C)C1	NCTC10649	MIC		0.005 µg/mL
CC(C)c1cc2c(cc1O[C@H]1O[C@H](CO)[C@@H](O)[C@H](O)[C@@H]1O)[C@@]1(C)CCCC(C)(C)[C@@H]1CC2		MIC		8 µg/mL
CC1(C)S[C@@H]2[C@H](NC(=O)[C@H](N)c3ccc(O)cc3)C(=O)N2[C@H]1C(=O)O	30 strains	MIC90		0.25 µg/mL
O=c1[nH]sc2ccc(F)cc12	ATCC 6538	MIC		5 µg/mL
C[C@H]1C[C@H](N)CN1c1nc2c(cc1F)c(=O)c(C(=O)O)cn2-c1ccc(F)cc1F	1775 (ciprofloxacin-resistant)	MIC		8 µg/mL
CO[C@H]1/C=C/O[C@@]2(C)Oc3c(C)c(O)c4c(=O)c(c5oc6cc(N7CCN(CC(C)C)CC7)cc(=O)c6nc5c4c3=C2O)NC(=O)/C(C)=C\C=C\[C@H](C)[C@H](O)[C@@H](C)[C@@H](O)[C@@H](C)[C@H](OC(C)=O)[C@@H]1C	209P	MIC		0.0039 µg/mL
CSCN1OCC(N)C1=O		MIC		>2500 µM
CN(C)c1ccc(O)c2c1C[C@H]1C[C@H]3[C@H](N(C)C)C(=O)C(C(N)=O)=C(O)[C@@]3(O)C(=O)C1=C2O	24 strains (ofloxacin-susceptible)	MIC50		0.12 µg/mL
CC1CN(c2c(Cl)cc3c(=O)c(C(=O)O)cn(C4CC4)c3c2F)CC(C)N1	133	MIC		0.5 µg/mL
COC[C@H](N)C1CCN(c2c(F)cn3c(=O)c(C(=O)O)cc(C4CC4)c3c2C)C1	NCTC10649	MIC		0.002 µg/mL
O=C(O)c1cn(C2CC2)c2c(F)c(N3CCNCC3)c(Cl)cc2c1=O	1756	MIC		0.25 µg/mL
COc1cc2oc(=O)ccc2cc1CC(O)C(C)(C)O		MIC		125 µg/mL
CCn1cc(C(=O)O)c(=O)c2cc(F)c(N3CCNCC3)cc21	30 strains	MIC90		4 µg/mL
CC(C)c1c(O)c(Br)cc2c1CC[C@H]1C(C)(C)CCC[C@]21C		MIC		>32 µg/mL
CN1CCN(c2c(Cl)cc3c(=O)c(C(=O)O)cn(C4CC4)c3c2F)CC1	1756	MIC		0.5 µg/mL
CCc1cc2c(c(C(C)C)c1O)CC[C@H]1C(C)(C)CCC[C@]21C		MIC		32 µg/mL
Cc1c(N2C[C@@H]3CCCN[C@H]3C2)c(F)cn2c(=O)c(C(=O)O)cc(C3CC3)c12	285	MIC		0.007 µg/mL
CC(C)c1c(O)ccc2c1CCC1C(C)(C)CCC[C@]21C		MIC		2 µg/mL
CC(C)c1c(O)ccc2c1[C@H](O)[C@H](O)[C@H]1C(C)(C)CCC[C@]21C	Methicillin-resistant	MIC		32 µg/mL
CC(C)(C)n1cc(C(=O)O)c(=O)c2cc(F)c(N3CCNCC3)cc21		MIC		0.03 µg/mL
CO/N=C(/C(=O)N[C@@H]1C(=O)N2C(C(=O)O)=C(COC(N)=O)CS[C@H]12)c1ccco1	30 strains	MIC90		2 µg/mL
Cc1c(O)ccc2c1CC[C@H]1C(C)(C)CCC[C@]21C		MIC		2 µg/mL
CC(=O)NC[C@H]1CN(c2ccc(N3CCN(C(=O)CO)CC3)c(F)c2)C(=O)O1	Oxacillin-resistant	MIC90		1–4 µg/mL
CCCCCCCC/C=C\CCCCCCCC(=O)O		MIC		2000 µM
Cc1c(N2CC3=CCCN[C@H]3C2)c(F)cn2c(=O)c(C(=O)O)cc(C3CC3)c12	CG55	MIC		0.025 µg/mL
CC(=O)OC[C@H]1O[C@H](Oc2cc3c(cc2C(C)C)CC[C@H]2C(C)(C)CCC[C@]32C)[C@@H](OC(C)=O)[C@@H](OC(C)=O)[C@@H]1OC(C)=O		MIC		>32 µg/mL
CN(C)[C@@H]1C(=O)C(C(N)=O)=C(O)[C@@]2(O)C(=O)C3=C(O)c4c(O)c(NC(=O)CNC(F)(F)F)cc(F)c4C[C@H]3C[C@@H]12	158-tet	EC50	agar diffusion	4 µg/mL
Cc1c(N2C[C@@H](F)[C@@H](C3(N)CC3)C2)c(F)c(N)c2c(=O)c(C(=O)O)cn([C@@H]3C[C@@H]3F)c12	24 strains (ofloxacin-susceptible)	MIC90		0.008 µg/mL
CCCCNC(=O)c1cccc(C(F)(F)F)c1SSc1c(C(=O)NCCCC)cccc1C(F)(F)F	ATCC 6538	MIC		40 µg/mL
CC1CN(c2c(Cl)cc3c(=O)c(C(=O)O)cn(C4CC4)c3c2F)CCN1	1756	MIC		0.5 µg/mL
CC(C)=CCC[C@H](C)CCOCCCCCC(=O)O		MIC		1000 µM
CO/N=C(\C(=O)N[C@@H]1C(=O)N2C(C(=O)O)=C(COC(C)=O)CS[C@H]12)c1csc(N)n1	ATCC 6538	MIC		1.5 µg/mL
Cc1c(N2CC3=CCCN[C@@H]3C2)c(F)cn2c(=O)c(C(=O)O)cc(C3CC3)c12	285	MIC		0.049 µg/mL
CCCCNC(=O)c1cc(C(F)(F)F)ccc1SSc1ccc(C(F)(F)F)cc1C(=O)NCCCC	ATCC 6538	MIC		40 µg/mL
CC1CN(c2c(F)cc3c(=O)c(C(=O)O)cn(C4CC4)c3c2Cl)CCN1	422	MIC		0.06 µg/mL
CC(C)c1c(O)ccc2c1[C@@H](O)C[C@H]1C(C)(C)CCC[C@]21C	Methicillin-resistant	MIC		>32 µg/mL
C[C@H]1COc2c(N3CCN(C)CC3)c(F)cc3c(=O)c(C(=O)O)cn1c23	25 strains (ofloxacin-resistant)	MIC50		16 µg/mL
O=c1[nH]sc2cc(F)ccc12	ATCC 6538	MIC		5 µg/mL
COC(=O)C(C)N1OCC(N)C1=O		MIC		>2500 µM
NC(=O)c1cccc(F)c1SSc1c(F)cccc1C(N)=O	ATCC 6538	MIC		40 µg/mL
CC(C)c1cc2c(cc1O[C@@H]1O[C@H](CO)[C@@H](O)[C@H](O)[C@H]1O)[C@@]1(C)CCCC(C)(C)[C@@H]1CC2		MIC		32 µg/mL

The first 5 rows once more:

SMILES | strain or isolate | read-out | method | value
COc1c(C)cc2c(c1C(C)C)CC[C@H]1C(C)(C)CCC[C@]21C |  | MIC |  | >32 µg/mL
CC(C)c1cc2c(cc1O[C@@H]1O[C@H](CO)C(O[C@@H]3O[C@H](CO)[C@@H](O)[C@H](O)[C@H]3O)[C@H](O)[C@H]1O)[C@@]1(C)CCCC(C)(C)[C@@H]1CC2 |  | MIC |  | >32 µg/mL
CC(C)c1c(O)ccc2c1C[C@@H]1OC[C@]3(C)CCC[C@@]2(C)C13 | Methicillin-resistant | MIC |  | >32 µg/mL
NC1CON(CCO)C1=O |  | MIC |  | >2500 µM
COc1c(N2C[C@@H]3CCCN[C@@H]3C2)c(F)cc2c(=O)c(C(=O)O)cn(C3CC3)c12 | 25 strains (methicillin-susceptible) | MIC50 |  | 0.06 µg/mL